Assay results as given in publication doi:10.1101/2022.04.26.489556.

Biological target: T1, Rv1019 (TetR family regulator) (UniProt P96381)
T1 sequence (looked up, limits assumed): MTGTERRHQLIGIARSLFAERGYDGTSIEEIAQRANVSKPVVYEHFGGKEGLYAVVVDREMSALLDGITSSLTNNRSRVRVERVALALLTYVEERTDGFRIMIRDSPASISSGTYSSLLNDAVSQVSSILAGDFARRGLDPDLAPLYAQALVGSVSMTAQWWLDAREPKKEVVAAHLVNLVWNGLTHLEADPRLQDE
Assay: EMSA
Conditions: increasing Rv1019 (2-10 uM), 5 nM DNA

**Q.** Does “TAGGTTACGGTACCGTAGCTTT (double strand) [Rv3230c PAL (12-bp inverted repeat with 5-bp flanks)]” bind?
**A.** binds

Construct, isoform or probe ends are uncertain for at least one entry. Protein sequences can lack the tags named with them.
